Columns and labels:
Assay in all cases: cell-based or functional assay
[1] = biological target: T1, spike protein of authentic SARS-COV-2 614G virus (SARS-CoV-2 614G)
[2] = biological target: T1, spike protein of authentic SARS-COV-2 …; remark: listed apart in the source
[3] = biological target: SARS-COV-2 spike (614G-del18) (SARS-CoV-2)
[4] = biological target: SARS-COV-2 Omicron XBB.1.5 spike (pCG1, del18; XBB with F486P) (SARS-CoV-2 Omicron XBB.1.5)
[5] = biological target: T1, spike protein of authentic SARS-COV-2 …; remark: listed apart in the source

B1: huR3DC23-Fc_LS (Fc fusion)
chain: DVQLVESGGGLVQPGGSLRLSCAVSGRIFSTYTMGWFRQAPGKEREFVAAVRWGAGTIYYADSVKGRFTISRDNAKNTVYLQMNSLRPEDTAVYYCGAAYVSKANYGSLWYQDSRRYDYWGQGTLVTVSSGGGGSGGGGS[left out - human IgG1 Fc with changes]
[1]
  GM IC50 in ng/mL (GSD factor), live virus microneutralisation: 2.5 ng/mL
[2]
  geometric mean IC50 (ng/mL), live virus microneutralisation: 3.7 ng/mL
[3]
  mean IC50 (ng/ml), VSV pseudovirus neutralisation: 0.8 ng/mL
[4]
  mean IC50 (ng/ml), VSV pseudovirus neutralisation: 0.51 ng/mL
[5]
  geometric mean IC50 (ng/mL), live virus method: 3.7 ng/mL
